{"source": "patent US7435438B1", "about": "“Disinfectant and method of use” (Pure BioScience, priority 2003, dated 2008)", "tested_on": "Legionella pneumophila serogroup 1"}
{"substance": "silver dihydrogen citrate", "values": [{"measurement": "eradication of Legionella compared with silver chloride solution (80 ppb)", "value": "as effective as silver chloride solution (80 ppb)"}]}
